# Data: PubChem BioAssay AID1159524 (National Center for Advancing Translational Sciences (NCATS), 2015)
# The list shows a part of the results, in another mix than the full data. Records with an inconclusive call do not appear. Where a call stands in place of a potency, no number is given. Calls of active or inactive are those of the source. The call rests on the fitted dose curve; tested in HEK293T cells.
# Assay: High Throughput Screening for Foot and Mouth Disease Virus Antivirals; further: read-out not given here; nearly all actives have a fitted effect of over 45% in size
# Conditions: FMDV antiviral cell-based qHTS; series mostly up to 57.9 µM
# Potency means the concentration at half of the fitted maximal effect.
row,SMILES,Potency
1,CCN(N=Nc1nonc1N)c1nonc1N,inactive
2,Nc1cccc2ccc([As](=O)(O)O)cc12,inactive
3,CN(C(=O)Cc1ccc(Cl)c(Cl)c1)[C@H]1CCCC[C@@H]1N1CCCC1,inactive
4,Cc1ccc(NP(=O)(Oc2ccccc2F)Oc2ccccc2F)nc1,inactive
5,Cc1cc(SC(NC(=O)c2ccc(F)cc2)C(Cl)(Cl)Cl)ncn1 (centres undefined),inactive
6,CCOP(=O)(Nc1ccccc1)OCC,inactive
7,CCCC1OP(N)(=O)OCC1CC (centres undefined),inactive
8,CC(=O)Nc1ccc([As](=O)(O)O)cc1,inactive
9,O=C(O)c1ccccc1[As](=O)(O)O,inactive
10,O=P(Nc1nc2ccc(Cl)cc2s1)(c1ccccc1)c1ccccc1,inactive
11,CN(C)P(=O)(N(C)C)n1c(Nc2ccccc2)nnc1-c1ccccc1,inactive
12,O=[N+]([O-])C1C(O)C(O)C([N+](=O)[O-])C(O)C1O (centres undefined),inactive
13,Nc1cc(N)c2nonc2c1[N+](=O)[O-],inactive
14,O=[N+]([O-])c1cc([N+](=O)[O-])c(Nc2ccccn2)c([N+](=O)[O-])c1,active: 25.1 µM
15,O=C(NC(Sc1ccncn1)C(Cl)(Cl)Cl)c1ccccc1 (centres undefined),inactive
16,Cc1ccc(OP(=O)(Nc2nccs2)Oc2ccc(C)cc2)cc1,inactive
17,COc1ccccc1OP(=O)(Nc1ccc(C)cn1)Oc1ccccc1OC,inactive
18,CN1CCCC(OC(=O)C(c2ccccc2)c2ccccc2)C1 (centres undefined),inactive
19,Clc1ccc(Cl)c(NC2=NCC(CBr)S2)c1 (centres undefined),inactive
20,NC(=O)c1cc([N+](=O)[O-])cc([N+](=O)[O-])c1N,inactive
21,Cc1ccc(N/C(=N/P(=O)(N2CCOCC2)N2CCOCC2)N2CCOCC2)cc1,inactive
22,CN(C(=O)Cc1ccc(Cl)c(Cl)c1)[C@H]1CCCC[C@H]1N1CCCC1,inactive
23,CN(C)C(=O)OCCc1n(C)cc[n+]1C,inactive
24,CC(C)c1nc(Nc2ccccc2)n(P(=O)(N(C)C)N(C)C)n1,inactive

row,SMILES,Potency
1,CC(C)=N/N=C(\N)N[N+](=O)[O-],inactive
2,CC(=O)C1=CCCC2CCC1N2 (centres undefined),inactive
3,CC1CCN(C(=O)Oc2c(Cl)cc(Cl)c3cccnc23)CC1,inactive
4,c1cc(-c2nn[nH]n2)ccc1-c1nn[nH]n1,inactive
5,Nc1ccc([As](=O)(O)c2ccc(N)cc2)cc1,inactive
6,CCN(/C(=N/P(=O)(N1CCOCC1)N1CCOCC1)N1CCOCC1)c1ccc(OC)cc1,inactive
7,O=C(OCCCN1CCCC1)C(O)(c1ccccc1)C1CCCCC1 (centres undefined),inactive
8,CC(=O)N1C2C3N(C(C)=O)C1C1N(C(C)=O)C(C(N1C(C)=O)N3C(C)=O)N2C(C)=O,inactive
9,O=[N+]([O-])c1cccc2n[nH]nc12,inactive
10,O=[N+]([O-])c1cc([N+](=O)[O-])c(CCNc2ccccc2)c([N+](=O)[O-])c1,inactive
11,Cc1ccc(NP(=O)(Oc2ccccc2)Oc2ccccc2)nc1,inactive
12,COc1ccc(C2=NCC(CBr)S2)cc1 (centres undefined),inactive
13,CCN(CC)CC(O)COC(=O)C(O)(c1ccccc1)C1CCCCC1 (centres undefined),inactive
14,COC(=O)C1(C)COP(=O)(Nc2ccccc2)OC1 (centres undefined),inactive
15,O=[N+]([O-])c1cccc(NC2=NCC(CBr)S2)c1 (centres undefined),inactive
16,O=C(O)CNc1ccc([As](=O)(O)O)cc1,inactive
17,CC(C)(C)C(=O)NC(Sc1ccncn1)C(Cl)(Cl)Cl (centres undefined),inactive
18,O=[N+]([O-])c1ncn(CCn2ncnc2[N+](=O)[O-])n1,inactive
19,O=C(Nc1cc([As](=O)(O)O)ccc1O)c1ccccc1,inactive
20,O=P1(N(CCCl)CCCl)OCCCS1 (centres undefined),inactive
21,C(Cc1nn[nH]n1)Cc1nn[nH]n1,inactive
22,Nc1ccc([As](=O)(O)c2ccc([N+](=O)[O-])cc2)cc1,inactive
23,O=C(OC1CN2CCC1CC2)c1cccc(Cl)c1 (centres undefined),inactive
24,O=[N+]([O-])c1ncn(CCn2cnc([N+](=O)[O-])n2)n1,inactive

row,SMILES,Potency
1,O=[N+]([O-])c1ccc(OP2(=O)COCCO2)cc1 (centres undefined),inactive
2,O=[As](O)(c1ccccc1)c1ccc(O)cc1,inactive
3,C[C@H]1OP(=O)(Oc2ccccc2)[C@H](O)[C@H](O)[C@H]1N=[N+]=[N-] (some centres undefined),inactive
4,O=P(Nc1nc2ccccc2s1)(c1ccccc1)c1ccccc1,inactive
5,CN(C)CCOC(=O)C(O)(c1ccccc1)C1CCCCC1 (centres undefined),inactive
6,COc1ccc(N)c([N+](=O)[O-])c1[N+](=O)[O-],inactive
7,CN(C)C1(CNC(=O)c2ccc(Cl)c(S(N)(=O)=O)c2)CCCCC1,inactive
8,O=P(Nc1ccccn1)(c1ccc(Br)cc1)c1ccc(Br)cc1,inactive
9,CCN(CCCl)Cc1ccccc1C,inactive
10,c1nnnn1CCn1cnnn1,inactive
11,O=P(Nc1nccs1)(c1ccccc1)c1ccccc1,inactive
12,CC(C)C(=O)NC(Sc1ccccc1)C(Cl)(Cl)Cl (centres undefined),inactive
13,CC(=O)Nc1ccc(Oc2c([N+](=O)[O-])cc([N+](=O)[O-])cc2[N+](=O)[O-])cc1,inactive
14,CC(=O)Nc1ccc([As](=O)(O)O)c(O)c1,inactive
15,COC(=O)C1(C)COP(=O)(NCc2ccccc2)OC1 (centres undefined),inactive
16,CC(=O)c1ccc(N2CC2c2ccncc2)cc1 (centres undefined),inactive
17,C[C@H]1OP(=O)(Oc2ccccc2)C[C@@H]2O[C@@H]21 (some centres undefined),inactive
18,C[C@@H]1C=CCP(=O)(Oc2ccccc2)O1 (some centres undefined),inactive
19,Cc1ccccc1CN(C)C(=O)COC(=O)C(O)(c1ccccc1)c1ccccc1,inactive
20,CCc1cc(O)c([N+](=O)[O-])c(C)c1[N+](=O)[O-],inactive
21,CC(C)(C)C(=O)NC(Sc1ccccc1)C(Cl)(Cl)Cl (centres undefined),inactive
22,CCOc1ccc(C2=NCC(CBr)S2)cc1 (centres undefined),inactive
23,O=P1(Nc2nc3ccc(Cl)cc3s2)COc2ccccc2O1 (centres undefined),inactive
24,CN(C)C(=O)Oc1noc2ccccc12,inactive

row,SMILES,Potency
1,Cc1ccc(OP(=O)(Nc2ccccn2)Oc2ccc(C)cc2)cc1,inactive
2,CC(=O)NC(SC(=S)N(CC(C)C)CC(C)C)C(Cl)(Cl)Cl (centres undefined),inactive
3,COC(=O)c1cc2c(s1)N=C(c1ccccc1)N(C)P2(=O)N1CCOCC1 (centres undefined),inactive
4,CCC(=O)N1C2C3N(C(=O)CC)C1C1N(C(=O)CC)C(C(N1C(=O)CC)N3C(=O)CC)N2C(=O)CC,inactive
5,CCN(CC)CCCOC(=O)C(O)(c1ccccc1)C1CCCCC1 (centres undefined),inactive
6,O=C(OC1CN2CCC1CC2)c1ccccc1 (centres undefined),inactive
7,O=P1(N(CCCl)CCCl)OCCC2CCCCN21 (centres undefined),inactive
8,O=C(NC1CCS(=O)(=O)C1)NP(=S)(Oc1ccccc1)Oc1ccccc1 (centres undefined),inactive
9,CCNC(=S)/N=C(\N)N[N+](=O)[O-],inactive
10,Cc1ccc(NP(=O)(Oc2cccc(C)c2)Oc2cccc(C)c2)nc1,inactive
11,c1ccc(-c2nn[nH]n2)c(-c2nn[nH]n2)c1,inactive
12,CN(C(=O)Cc1ccc(Cl)c(Cl)c1)[C@H]1CC[C@@]2(CCCO2)C[C@@H]1N1CCCC1,inactive
13,O=[N+]([O-])c1ccc2c(c1)nnn2O,inactive
14,CN(C(=O)Cc1ccccc1)[C@@H]1CC[C@]2(CCCO2)C[C@H]1N1CCCC1,inactive
15,N#CCCN(C(=O)COC(=O)C(O)(c1ccccc1)c1ccccc1)c1ccc(F)cc1,inactive
16,O=C(O)COc1ccc([As](=O)(O)O)cc1[N+](=O)[O-],inactive
17,Nc1ccccc1[As](=O)(O)c1ccccc1,inactive
18,O=P(Nc1nccs1)(Oc1ccccc1)Oc1ccccc1,inactive
19,O=P(Nc1nccs1)(c1ccccc1)c1nc2ccccc2s1 (centres undefined),inactive
20,CCOP(=O)(Nc1cccc2ccccc12)OCC,inactive
21,CCCOP(=S)(Nc1nc(N)cc(=O)[nH]1)OCCC,inactive
22,Nc1cccc2c([As](=O)(O)O)cccc12,inactive
23,Cc1ccc(NCCc2c([N+](=O)[O-])cc([N+](=O)[O-])cc2[N+](=O)[O-])cc1,inactive
24,Cc1cccc(OCC(=O)OC2CN3CCC2CC3)c1 (centres undefined),inactive

row,SMILES,Potency
1,O=[As](O)(c1cccc(O)c1)c1cccc(O)c1,inactive
2,CS(=O)(=O)c1ccc(Cl)c(NC(=O)COC(=O)C(O)(c2ccccc2)c2ccccc2)c1,inactive
3,O=[As](O)(O)c1cccnc1,inactive
4,COc1cc(C(=O)NCC2(N3CCOCC3)CCCCC2)cc(Cl)c1OC(C)C,inactive
5,O=C(OC1CN2CCC1CC2)c1ccc(Cl)cc1 (centres undefined),inactive
6,CC1(CBr)Cn2c(nc3ccccc3c2=O)S1 (centres undefined),inactive
7,Cc1ccc(S(=O)(=O)N(CCCN)CCCc2c(C)nc(N)[nH]c2=O)cc1.O=[N+]([O-])c1cc([N+](=O)[O-])c(O)c([N+](=O)[O-])c1,inactive
8,CN(C(=O)Cc1ccc(Cl)c(Cl)c1)[C@@H]1CCCC[C@H]1N1CCCC1,inactive
9,CC(C)/C=N\N=C(\N)N[N+](=O)[O-],inactive
10,COc1ccccc1CNC(=O)COC(=O)C(O)(c1ccccc1)c1ccccc1,inactive
11,CC(C)(C)C(=O)NC(Sc1ncccn1)C(Cl)(Cl)Cl (centres undefined),inactive
12,Clc1n[nH]nc1-c1nn[nH][15n]1,inactive
13,O=P1(N(CCCl)CCCl)NCCC(C(F)(F)F)O1 (centres undefined),inactive
14,CCOP(=O)(Nc1ccc(C)cn1)OCC,inactive
15,CN(CCCl)Cc1cc(Cl)c(NC2=NCCN2)c(Cl)c1,inactive
16,Nc1ccc(CCCCOc2ccccc2)cc1.O=[N+]([O-])c1cc([N+](=O)[O-])c(O)c([N+](=O)[O-])c1,inactive
17,CCOP(=O)(NC(=NC(C)c1ccccc1)NC(C)c1ccccc1)OCC (centres undefined),inactive
18,O=P1(Nc2ccccn2)COc2ccccc2OC1,inactive
19,O=C(O)C(O)c1ccc(N(CCCl)CCCl)cc1.c1ccncc1 (centres undefined),inactive
20,O=[As](O)(c1cccs1)c1cccs1,inactive
21,Cc1ccc(OCC(=O)OC2CN3CCC2CC3)cc1 (centres undefined),inactive
22,NS(=O)(=O)c1cccc(NC(=O)COC(=O)C(O)(c2ccccc2)c2ccccc2)c1,inactive
23,O=P1(Nc2ccc(Br)cn2)COc2ccccc2OC1,inactive
